From article PMC8362950 (PLoS ONE, 2021)

Columns and labels:
Test in all cases: purified protein
Settings in all cases: pH 7.4
O=C(O)C[C@H](O)C(=O)O = tested on: O=C(O)C[C@H](O)C(=O)O
[1] = tested on: NC(=O)c1ccc[n+]([C@@H]2O[C@H](COP(=O)(O)OP(=O)(O)OC[C@H]3O[C@@H](n4cnc5c(N)ncnc54)[C@H](O)[C@@H]3O)[C@@H](O)[C@H]2O)c1
O=C(O)CC(=O)C(=O)O = tested on: O=C(O)CC(=O)C(=O)O
[2] = tested on: NC(=O)C1=CN([C@@H]2O[C@H](COP(=O)(O)OP(=O)(O)OC[C@H]3O[C@@H](n4cnc5c(N)ncnc54)[C@H](O)[C@@H]3O)[C@@H](O)[C@H]2O)C=CC1

| Substance | Km (O=C(O)C[C@H](O)C(=O)O) | Km [1] | Km (O=C(O)CC(=O)C(=O)O) | Km [2] |
| --- | --- | --- | --- | --- |
| 6xHis-CBU0823 (Coxiella burnetii RSA 493) | 0.40 (95% CI 0.01–1.25) mM | 0.31 (95% CI 0.03-undefined) mM |  |  |
| GST-CBU1241 (Coxiella burnetii RSA 493) |  |  | 0.11 (95% CI 0.07–0.17) mM | 0.12 (95% CI 0.06–0.22) mM |
